Tested on: Vero cells
Test: Cytotoxic activity on Vero cell line (Trypan blue, 24 h)
Assay type: cell-based
Conditions: ratio of IC50 in Vero cells to IC50 in G. duodenalis
Description: Cytotoxicity assay was performed on Vero cell line (ATCC CCL-81), as previously described. Briefly, Vero cells were cultivated in Roswell Park Memorial Institute (RPMI) medium supplemented with 10% fetal bovine serum (FBS). […] Each compound was dissolved in dimethyl sulfoxide (DMSO) and sterilized by filtration, and brought to final concentrations of 487, 243.5, 121.75 and 60.875 μg/mL with RPMI medium supplemented with 10% FBS. The cell suspension was adjusted to 1 × 10^4 cells/mL with RPMI medium supplemented with 10% FBS. Cell suspension (200 μL) was placed into a 96-well plate and incubated at 37 °C in a 5% CO2 atmosphere for 24 h. Each compound solution was added to each well containing the Vero cells and incubated for 24 h. The assay was carried out in triplicate. The number of cells were determined in a Neubauer chamber, while the percentage of viable cells was measured with the Trypan blue staining method.
The SI is the ratio of the IC50 concentration in host cells (Vero cells) to that in parasite (G. duodenalis).

Row | Compound | Selectivity Index (SI)
1 | C=C1[C@H]2CC[C@H](C2)C1(C)C [(1R,4S) (+)-Camphene] | 2.7
2 | (R) (−)-Carvone | 1.6
